# Test results published in PubChem BioAssay AID1478 (National Center for Advancing Translational Sciences (NCATS), 2009).
# By UniProt entry, the sequences of proteins in these tests, tags left out. Residues count along the entry.
# UniProt P25779, 123-467 limits assumed: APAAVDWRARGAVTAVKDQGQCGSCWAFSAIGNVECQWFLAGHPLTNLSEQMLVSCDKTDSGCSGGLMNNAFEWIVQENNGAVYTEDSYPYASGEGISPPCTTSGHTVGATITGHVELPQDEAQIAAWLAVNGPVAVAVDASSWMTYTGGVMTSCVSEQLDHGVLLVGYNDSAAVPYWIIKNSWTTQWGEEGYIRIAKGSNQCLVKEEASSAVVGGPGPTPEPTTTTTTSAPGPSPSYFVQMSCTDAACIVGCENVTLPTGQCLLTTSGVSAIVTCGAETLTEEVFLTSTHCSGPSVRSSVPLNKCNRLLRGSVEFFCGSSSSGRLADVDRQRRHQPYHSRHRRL
# This is a selection; strong and weak results do not stand in their true shares. Some salts or complexes appear as unconnected parts, following the source record. Activity calls are given as the source filed them. The call rests on the fitted dose curve; in most records, active means well fitted inhibition curve with a large enough effect; inconclusive means small, poorly fitted or top-dose-only effect; inactive means flat fitted curve, though single readings scatter.
# Target: Cruzipain (Trypanosoma cruzi) (UniProt P25779)
# Assay: qHTS Assay for Promiscuous and Specific Inhibitors of Cruzain (with detergent); further: nearly all actives have a fitted effect of over 40% in size
# Settings: purified cruzain, Z-FR-AMC fluorescence, 0.01% Triton
# Protocol: Cruzain (3.4.22.51) is a cysteine protease from the tropical parasite Trypanosoma cruzi. Dual qHTS experiment was performed against the NCGC compound collection in order to 1) identify novel inhibitors of the enzyme and 2) profile the compound collection for promiscuous inhibitors operating via colloidal aggregation (by performing detergent-free and detergent-containing comparison screens). Cruzain was assayed by the use of fluorogenic coumarin-based substrate Z-FR-AMC: proteolytic cleavage releases AMC, whose fluorescence is measured at 360 nm excitation and 450 nm emission. Purified cruzain was supplied by the labs of Prof. James McKerrow and Brian Shoichet, UC San Francisco.
# This assay had 0.01% Triton X-100 concentration. See also releated assay "qHTS Assay for Promiscuous and Specific Inhibitors of Cruzain (without detergent)" with 0.00005% Triton X-100.
# See following references for additional details:
# Assay Provider: Shoichet, Brian; University of California, San Fancisco
# Screening Center PI: Austin, C.P.
# Screening Center: NIH Chemical Genomics Center [NCGC]
# Buffer: 100 mM Sodium Acetate, pH 5.5, 5 mM DTT, Triton X-100 concentration: 0.01%.
# Buffer in columns 3 and 4 as negative control (no enzyme).
# Substrate solution: 2 uM final concentration of Z-FR-AMC (catalog number I-1160, Bachem) dispensed throughout the plate.
# Enzyme: 1.5 nM Cruzain final concentration in columns 1, 2, 5-48. Column 1 is neutral (100% activity). Column 2 contained titration of covalent inhibitor K11777, starting concentration 1 mM, then 1:2 dilution in duplicate).
# Three uL of enzyme or buffer were dispensed to 1536-well Greiner black solid bottom plates. Compounds and controls (23 nL) were transferred via Kalypsys PinTool. The plates were incubated for 15 min at room temperature, and then 1 uL of substrate solution was added to start the reaction. The plates were immediately transferred to and read 4 times every 30 seconds for 2 min on ViewLux High-throughput CCD imager (Perkin-Elmer) using 360 nm excitation and 450 nm emission fluorescence protocol. The fluorescence intensity difference between the third and the first time points (time lapse of 60 seconds) was used to compute reaction progress.
row,Structure (SMILES),"max response, negative = inhibition"
1,O=C(OCCN1CCN(CCOCc2ccccc2)CC1)C(O)(c1ccccc1)c1ccccc1,inactive: 1.75%
2,CP(=O)(Nc1ccccc1F)Oc1ccccc1 (stereo unspecified),inactive: 0.0998%
3,CC(C)c1ccc(OP(C)(=O)Nc2ccc(SC(F)(F)F)cc2)cc1 (stereo unspecified),inactive: -9.76%
4,O=P1(Nc2nc3ccc(Cl)cc3s2)COc2ccccc2O1 (stereo unspecified),inactive: 1.1%
5,CP(=O)(Nc1ccccc1)Oc1ccc(F)cc1 (stereo unspecified),inactive: 3.71%
6,COC(=O)c1cc2c(s1)N=C(c1ccccc1)N(C)P2(=O)N1CCOCC1 (stereo unspecified),inactive: -0.686%
7,CC(=O)NC(SC(=S)N(CC(C)C)CC(C)C)C(Cl)(Cl)Cl (stereo unspecified),inactive: -19.6%
8,CN(C(=O)Cc1ccc(Cl)c(Cl)c1)[C@@H]1CCCC[C@@H]1N1CCCC1,inactive: 2%
9,CCN(CC)CCCOC(=O)C(O)(c1ccccc1)C1CCCCC1 (stereo unspecified),inactive: -0.916%
10,CCC(=O)N1C2C3N(C(=O)CC)C1C1N(C(=O)CC)C(C(N1C(=O)CC)N3C(=O)CC)N2C(=O)CC,inactive: 2.86%
11,CCOC(=O)c1ccc(NP(C)(=O)Oc2ccc(F)cc2)cc1 (stereo unspecified),inactive: -1.08%
12,CCC(C)(OO)OOC(C)(CC)OO (stereo unspecified),inactive: -4.58%
13,Cc1cccc([N+](=O)[O-])c1[N+](=O)[O-],inactive: 1.87%
14,CCOC(=O)NC(Sc1ccccc1)C(Cl)(Cl)Cl (stereo unspecified),inactive: -7.15%
15,C(Cc1nn[nH]n1)Cc1nn[nH]n1,inactive: 0.866%
16,O=C(OC1CN2CCC1CC2)c1cccc(Cl)c1 (stereo unspecified),inactive: -1.55%
17,CC(=O)NC(SC(=S)N(C)C)C(Cl)(Cl)Cl (stereo unspecified),inactive: -1.58%
18,Cc1ccc([N+](=O)[O-])c([N+](=O)[O-])c1,inactive: 7.72%
19,Cc1c([N+](=O)[O-])cccc1[N+](=O)[O-],inactive: 0.114%
20,CN(C)CCOC(=O)C(O)(c1ccccc1)C1CCCCC1 (stereo unspecified),inactive: 1.9%
21,Cc1cc([N+](=O)[O-])cc([N+](=O)[O-])c1O,inactive: -6.67%
22,[N-]=[N+]=Nc1ccc([As](=O)(O)O)cc1,inactive: 2.81%

row,Structure (SMILES),"max response, negative = inhibition"
1,COc1ccc(OP(C)(=O)Nc2cccc(Br)c2)cc1 (stereo unspecified),inactive: -1.21%
2,Cc1ccccc1NP(C)(=O)Nc1ccccc1C,inactive: 2.33%
3,CCN(CCCl)Cc1ccccc1C,inactive: -1.7%
4,[NH4+].[O-][Cl+3]([O-])([O-])[O-],inactive: 5.86%
5,C[C@@H](O)COc1ccc([As](=O)(O)O)cc1N,inactive: 2.2%
6,NNC(NN)NN.n1nc(-c2nn[nH]n2)n[nH]1,inactive: -2.63%
7,CN1CCC[C@H](OC(=O)C(c2ccccc2)c2ccccc2)C1,inactive: -0.505%
8,CP(=O)(Nc1ccc2c(c1)OCCO2)Oc1ccccc1 (stereo unspecified),inactive: 2.25%
9,CCOP(C)(=S)SCC(=O)NC(C)(CC)C(=O)O (stereo unspecified),inactive: 7.71%
10,c1nnnn1CCn1cnnn1,inactive: 5.4%
11,CCOP(=O)(CC)OCC,inactive: 0.0254%
12,CC(C)C(=O)NC(Sc1ccccc1)C(Cl)(Cl)Cl (stereo unspecified),inactive: 0.161%
13,O=P(Nc1nccs1)(c1ccccc1)c1ccccc1,inactive: 0.471%
14,CN(C)C(=O)OCCc1n(C)cc[n+]1C,inactive: 0.829%
15,O=C(CO)Nc1ccc([As](=O)(O)O)cc1,inactive: 0.804%
16,CC(=O)C1=CCCC2CCC1N2 (stereo unspecified),inactive: 2.61%
17,CC1CCN(C(=O)Oc2c(Cl)cc(Cl)c3cccnc23)CC1,inactive: -7.87%
18,CC(C)(C)c1ccc(OP(C)(=O)O)cc1,inactive: 5.01%
19,CP(=O)(Nc1ccc(Cl)cc1)Oc1ccc(F)cc1 (stereo unspecified),inactive: -3.12%
20,O=[N+]([O-])c1cccc2n[nH]nc12,inactive: -1.12%
21,CC(=O)N1C2C3N(C(C)=O)C1C1N(C(C)=O)C(C(N1C(C)=O)N3C(C)=O)N2C(C)=O,inactive: 3.73%
22,COc1ccccc1OP(C)(=O)Nc1c(C)n(C)n(-c2ccccc2)c1=O (stereo unspecified),inactive: -9.34%

row,Structure (SMILES),"max response, negative = inhibition"
1,OCCSCCO,inactive: 1.57%
2,CP(=O)(Oc1ccccc1)N1CCOC1=O (stereo unspecified),inactive: -0.643%
3,CCc1nc2c(n1)c1c(non1O)c1c2no[n+]1[O-],inactive: -1%
4,CCN(CC)CC(O)COC(=O)C(O)(c1ccccc1)C1CCCCC1 (stereo unspecified),inactive: 3.24%
5,COc1ccc(OP(C)(=O)Nc2ccc(Br)cc2)cc1 (stereo unspecified),inactive: -1.92%
6,N#[O+].[C-]#N.[C-]#N.[C-]#N.[C-]#N.[C-]#N.[Fe+2].[Na+].[Na+],inactive: -3.93%
7,CCOC(=O)c1ccc(NP(C)(=O)Oc2ccc(Cl)cc2)cc1 (stereo unspecified),inactive: -3.03%
8,CP(=O)(OC12CC3CC(CC(C3)C1)C2)OC12CC3CC(CC(C3)C1)C2,inactive: 1.74%
9,CCN(N=Nc1nonc1N)c1nonc1N,inactive: -4.48%
10,C(Cc1nn[nH]n1)c1nn[nH]n1,inactive: 0.938%
11,Cc1nc2ccc3ccccc3c2o1.O=[N+]([O-])c1cc([N+](=O)[O-])c(O)c([N+](=O)[O-])c1,inactive: -8.23%
12,[N-]=[N+]=NCC(O)CN=[N+]=[N-] (stereo unspecified),inactive: 3.3%
13,Cc1cc(SC(NC(=O)c2ccc(F)cc2)C(Cl)(Cl)Cl)ncn1 (stereo unspecified),inactive: -5.35%
14,CCOP(=O)(Nc1ccccc1)OCC,inactive: 6.97%
15,COc1ccccc1OP(C)(=O)Nc1ccc(C)c(C)c1 (stereo unspecified),inactive: 3.33%
16,CN(C(=O)Cc1ccc(Cl)c(Cl)c1)[C@H]1CCCC[C@@H]1N1CCCC1,inactive: -0.866% [middle of 6 runs]
17,COc1ccc(OP(C)(=O)Nc2ccccc2Br)cc1 (stereo unspecified),inactive: 0.179%
18,CP(=O)(Nc1ccccn1)Oc1ccccc1 (stereo unspecified),inactive: 0.465%
19,COc1ccccc1OP(C)(=O)Nc1ccc(C)cc1C (stereo unspecified),inactive: -0.0763%
20,NCC[C@@H](N)CSP(=O)(O)O,inactive: 0.594%
21,CCc1ccc(OP(C)(=O)O)cc1,inactive: 0.807%
22,Cc1c(NP(C)(=O)Oc2ccc(C(C)C)cc2)c(=O)n(-c2ccccc2)n1C (stereo unspecified),inactive: 4.73%

row,Structure (SMILES),"max response, negative = inhibition"
1,CC(C)CC(=O)NC(Sc1ccc(Cl)cc1)C(Cl)(Cl)Cl (stereo unspecified),inactive: 0.536%
2,Oc1ccccc1CNc1ccccn1,inactive: 2.97%
3,O=C(NC(Sc1ccncn1)C(Cl)(Cl)Cl)c1ccccc1 (stereo unspecified),inactive: -6.08%
4,Cc1c2non([O-])c-2c(C)[n+](=O)[n+]1[O-],inactive: -0.371%
5,COc1ccc(OP(C)(=O)Nc2ccccn2)cc1 (stereo unspecified),inactive: 4.66%
6,O=[N+]([O-])c1ccc(C[As](=O)(O)O)cc1,inactive: 2.29%
7,CN1CCCC(OC(=O)C(c2ccccc2)c2ccccc2)C1 (stereo unspecified),inactive: -0.858%
8,CN(C)CCOC(=O)C(O)(c1ccccc1)C1CCCC1 (stereo unspecified),inactive: 2.14%
9,O=[N+]([O-])[O-].[NH4+],inactive: 3.79%
10,NC(=O)Nc1cc([As](=O)(O)O)cc(I)c1O,inactive: 1.55%
11,O=C(OC1CN2CCC1CC2)C12CC3CC(CC(C3)C1)C2 (stereo unspecified),inactive: 5.39%
12,Cc1c2c(nc3ccccc13)SC(C(Cl)Cl)C2 (stereo unspecified),inactive: -9.32%
13,CCN(CC)C(=S)SC(NC=O)C(Cl)(Cl)Cl (stereo unspecified),inactive: -2.73%
14,COc1ccc(OP(C)(=O)Nc2cccc(F)c2)cc1 (stereo unspecified),inactive: 7.52%
15,O=[N+]([O-])c1cc([N+](=O)[O-])c(-c2ccn[nH]2)s1,inactive: -8.07%
16,[N-]=[N+]=NCC(N)=O,inactive: -1.11%
17,COc1ccccc1OP(C)(=O)Nc1ccc(C)cc1 (stereo unspecified),inactive: -3.23%
18,Cc1ccc(NP(C)(=O)Oc2ccccc2)c(C)c1 (stereo unspecified),inactive: 2.6%
19,CCOC(=O)c1ccc(NP(C)(=O)Oc2ccccc2)cc1 (stereo unspecified),inactive: -3.52%
20,O=[As]c1ccc(S(=O)(=O)NCCO)cc1 (stereo unspecified),inactive: -4.38%
21,ClCCSc1nnc(-c2cccnc2)o1,inactive: -1.48%
22,Cc1ccc2nc3c(c(C)c2c1)CC(C(Cl)Cl)S3 (stereo unspecified),inactive: -9.98%

row,Structure (SMILES),"max response, negative = inhibition"
1,CC(C)(C)c1ccc(OP(C)(=O)Nc2ccc(SC(F)(F)F)cc2)cc1 (stereo unspecified),inactive: -9.24%
2,CP(=O)(Nc1ccccc1Br)Oc1ccccc1 (stereo unspecified),inactive: -2.76%
3,CN(N=O)C(=N)N[N+](=O)[O-],inactive: 5.29%
4,CP(=S)(Nn1cnnc1)Oc1ccccc1 (stereo unspecified),inactive: -0.65%
5,Cc1cc(SC(NC(=O)c2ccccc2)C(Cl)(Cl)Cl)nc(C(C)C)n1 (stereo unspecified),inactive: -1.31%
6,N1=C(c2nnc(-c3nn[nH]n3)nn2)NNN1,inactive: -3.45%
7,CP(=O)(Nc1ccccn1)Oc1ccc(Cl)cc1 (stereo unspecified),inactive: 3.57%
8,CCC(C)N(CC(C)C)C(=S)SC(NC(C)=O)C(Cl)(Cl)Cl (stereo unspecified),inactive: -14.4%
9,CCOC(=O)c1ccc(NP(C)(=O)Oc2ccc(OC)cc2)cc1 (stereo unspecified),inactive: 0.585%
10,CCOP(C)(=S)SCC(=O)NC(C)C(=O)O (stereo unspecified),inactive: 6.98%
11,O=C(COc1ccccc1)OC1CN2CCC1CC2 (stereo unspecified),inactive: 1.1%
12,CP(=O)(NC(=O)Nc1ccccc1)Oc1ccccc1 (stereo unspecified),inactive: 3.38%
13,O=C(O)[C@@H](O)c1ccc([As](=O)(O)O)cc1,inactive: 2.41%
14,Cc1cc(C)cc(OP(C)(=O)Nc2ccc(SC(F)(F)F)cc2)c1 (stereo unspecified),inactive: -13.8%
15,COP1(=S)c2c(C)nn(CCC#N)c2N=C(c2ccc(F)cc2)N1C (stereo unspecified),inactive: 4.18%
16,Cc1cccc(C)c1OP(C)(=O)Nc1ccc(SC(F)(F)F)cc1 (stereo unspecified),inactive: -12.2%
17,[Au].[Au].c1ccc([PH+](c2ccccc2)c2ccccc2)cc1.c1ccc([PH+](c2ccccc2)c2ccccc2)cc1.n1n[nH]c(-c2nnn[nH]2)n1,inactive: 4.09%
18,Cc1nc2ccc3ccccc3c2s1.O=[N+]([O-])c1cc([N+](=O)[O-])c(O)c([N+](=O)[O-])c1,inactive: -18.2%
